The record followed here is patent publication US20230304010A1, “COMPOSITIONS AND METHODS FOR TREATING VIRAL INFECTIONS” (priority 2020, published 2023).

As a reminder, the IC50 is the midpoint of a concentration-inhibition curve. A higher IC50 goes with weaker potency in that assay.

The target of experiment [1] is ACE2, Q9BYF1. Kind of experiment: inhibitor screening kit; SARS-CoV-2 Spike:ACE2 (Example 3 assay).
The target in experiment [2] is ACE2, Q9BYF1. Kind of experiment: ACE2:SARS-CoV-2 Spike kit, ACE2 on plate; competitor Spike Gamma (P1)-Fc.
Experiment [3] deals with ACE2, Q9BYF1. Kind of experiment: ACE2:SARS-CoV-2 Spike kit, ACE2 on plate; competitor Spike Alpha (B117)-Fc.
The target in experiment [4] is ACE2, Q9BYF1. Kind of experiment: ACE2:SARS-CoV-2 Spike kit, ACE2 on plate; competitor Spike Beta (B1312)-Fc.
Experiment [5] concerns the target ACE2, Q9BYF1. In words: ACE2:SARS-CoV-2 Spike kit, ACE2 on plate; competitor Spike Delta (B1617)-Fc.
The target of experiment [6] is ACE2, Q9BYF1. In words: ACE2:SARS-CoV-2 Spike kit, ACE2 on plate; competitor Spike Epsilon (B1429)-Fc.
For experiment [7], the target named is ACE2, Q9BYF1. In words: SARS-CoV-2 Spike:ACE2 inhibitor screening kit (Example 4).
Experiment [8] has as its target ACE2, Q9BYF1. In words: inhibitor screening kit; ACE2:SARS-CoV-2 Spike (Example 4 assay).

In the experiment with ACE2, Q9BYF1 [1], TEYQAGSTKLWRALWRLWRSLWRLLWK (modifications not checked) [Seq16 (LNCOV-17)] returned an IC50 above 1000 nM.

Consider NGVEGFNKLWRALWRLWRSLWRLLWK (modifications not checked) [Seq17 (LNCOV-15)], for which the IC50 with ACE2, Q9BYF1 [2] is 87.2 nM; with ACE2, Q9BYF1 [3], 136 nM; with ACE2, Q9BYF1 [4] it was 75.2 nM; in the experiment with ACE2, Q9BYF1 [5], 48.2 nM; in the experiment with ACE2, Q9BYF1 [6], 94.7 nM.

For the molecule TNGVGYQPYKLWRALWRLWRSLWRLLWK (modifications not checked) [Seq22 (LNCOV-14)], in the experiment with ACE2, Q9BYF1 [7], the fold less potent than Seq20/Seq21 is 3.6 fold. For the same molecule, the IC50 with ACE2, Q9BYF1 [8] was 145 nM; with ACE2, Q9BYF1 [1], above 1000 nM.

GNYNYLYRLFKLWRALWRLWRSLWRLLWK (modifications not checked) [Seq15 (LNCOV-22)]: the IC50 is above 10000 nM with ACE2, Q9BYF1 [8] and above 1000 nM with ACE2, Q9BYF1 [1].
